A mixed list of measured activities; the numbers were collected in NIAID ChemDB.

All rows: growth or infection tests; organism: Coxsackie virus

Lines come from different laboratories, so protocols vary. Inhibition is in % at the dose shown (toxicity tests: loss of growth or viability). An empty or dashed field is not shown. ECn is the concentration giving n% inhibition of infection, replication or growth.

structure | read by | cells | strain | tested at | endpoint | value
O=c1[nH]cnc2c1cnn2Cc1cn(CCCCO)nn1 |  | HeLa | B4 |  | EC50 | >400 µg/mL
C/C(O)=C1\C(=N)N(COCCO)S(=O)(=O)N=C1N |  | HeLa | TYPE B4 |  | EC50 | >400 µg/mL
COc1ccc(-n2c(Cc3nc4n(n3)CCCC4)n[nH]c2=S)cc1 |  |  | B4 |  | MIC | 80 µg/mL
N#Cc1cc([N+](=O)[O-])ccc1Oc1ccc(Cl)c(Cl)c1 |  | VERO | TYPE A21 | 0.39 µg/mL | inhibition | 88%
CSc1nsc(-c2cccnc2)c1C#N | plaque count | HEP-2 | TYPE B1 |  | EC50 | >20 µM
CC(=O)OCCOCN1C(N)=CC(N)=NS1(=O)=O |  | VERO | TYPE B4 |  | EC50 | >400 µg/mL
Cc1cc(CCCCCOc2c(Cl)cc(C3=NCCO3)cc2Cl)on1 | plaque count | RD-2 | B-2 |  | EC50 | 0.007 µg/mL
CC(=O)OCCOCN1C=C(C#N)C(N)=NS1(=O)=O |  | VERO | TYPE B4 |  | EC50 | >400 µg/mL
Nc1ncnc2c1cnn2Cc1cn(CCCCO)nn1 |  | HeLa | B4 |  | EC50 | >400 µg/mL
Nc1nc2c(ccn2[C@@H]2C[C@H](CO)[C@H](O)[C@@H]2O)c(=O)[nH]1 |  |  | A21 |  | MIC | >100 µg/mL
CC(=O)OCCOCN1C(=N)/C(=C(\C)O)C(N)=NS1(=O)=O |  | HeLa | TYPE B4 |  | EC50 | >400 µg/mL
Nc1nccc2c1ncn2[C@@H]1C=C[C@@H](O)[C@H]1O |  |  | TYPE B4 |  | MIC | >400 µg/mL
NC1=CC(N)=NS(=O)(=O)N1COCCO |  | HeLa | TYPE B4 |  | EC50 | >400 µg/mL
CSc1nsc(C)c1C#N | plaque count | HEP-2 | TYPE B1 |  | EC50 | >100 µM
CSc1ncnc2c1cnn2Cc1cn(CCCCO)nn1 |  | VERO | B4 |  | EC50 | >400 µg/mL
CC(=O)OCCOCN1C(C)=CC(N)=[N+](c2ccccc2)S1(=O)=O |  | VERO | TYPE B4 |  | EC50 | >400 µg/mL
CNc1ncnc2c1cnn2Cc1cn(CCCCO)nn1 |  | VERO | B4 |  | EC50 | >400 µg/mL
CCn1nc(Cc2n[nH]c(=S)o2)nc1C |  |  | B4 |  | MIC | >400 µg/mL
CSc1nsc(-c2cccc3ccccc23)c1C#N | plaque count | HEP-2 | TYPE B1 |  | EC50 | >4 µM
CCSC1NN=C(Cc2nc(C)n(C)n2)N1c1ccccc1 |  |  | B4 |  | MIC | 400 µg/mL
Nc1ncnc2c1ncn2[C@@H]1C=C[C@@H](O)[C@H]1O |  |  | TYPE B4 |  | MIC | >400 µg/mL

A second listing of 2 rows from above:

structure | read by | cells | strain | tested at | endpoint | value
CC(=O)OCCOCN1C(=N)/C(=C(\C)O)C(N)=NS1(=O)=O |  | HeLa | TYPE B4 |  | EC50 | >400 µg/mL
C/C(O)=C1\C(=N)N(COCCO)S(=O)(=O)N=C1N |  | HeLa | TYPE B4 |  | EC50 | >400 µg/mL